Measured values from ChEMBL document CHEMBL4303087, “Broad anti-coronaviral activity of FDA approved drugs against SARS-CoV-2 in vitro and SARS-CoV in vivo” (2020).

Tested on: SARS-CoV
Test: Reduction of weight loss in SARS-CoV (MA15) infected mice after 4 days
Conditions: strain BALB/c

CN(C)CCCN1c2ccccc2Sc2ccc(Cl)cc21.Cl [CHLORPROMAZINE HYDROCHLORIDE]
Weight loss (dose 0 ug): 14% | Weight loss (dose 20 ug): 10% | Weight loss (dose 100 ug): 5% | Weight loss (dose 200 ug): 5%
